Values from PubChem BioAssay AID624099 (ICCB-Longwood, 2012).

Assay: 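Knock-downs relieving repression by E2 of an HPV18 LCR luciferase reporter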 (primary screen)
Cell system: human C33A cervical carcinoma cells (HPV-negative) stably expressing BPV1 E2 and an HPV18 LCR luciferase reporter
Reagents: siRNA pool against human genes, 40 nM
Duration: 72 h
Detection: 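Per-well luciferase luminescence, z-scored on each plate against the plate mean and SD with control wells left out, then averaged across three replicate plates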
Direction: mean z-score and z-score: higher = stronger reporter signal, weaker E2 silencing
Active means: 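Hit if mean z-score reaches 2 and two or more of three replicate z-scores also reach 2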
The whole screen tested about 21,000 reagents; shown is an unselected part. 497 of them (2.4%) were called active. 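Higher z means weaker E2 silencing; only reporter increases were scored, and knock-downs that hurt cell survival may mask genuine repressor factors.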 The numbers tell different reagents against one gene apart.

| target gene | pool no. | mean z-score | z-score, replicate A | z-score, replicate B | z-score, replicate C | activity call |
| --- | --- | --- | --- | --- | --- | --- |
| CA5BP1 (carbonic anhydrase 5B pseudogene 1) | 1 | 1.27 | 1.27 | 1.21 | 1.32 | inactive |
| TAGLN (transgelin) | 1 | 1.53 | 1.5 | 1.7 | 1.38 | inactive |
| FGF12 (fibroblast growth factor 12) | 1 | 1.71 | 1.75 | 1.6 | 1.78 | inactive |
| ZNF570 (zinc finger protein 570) | 1 | 1.01 | 1.14 | 1.15 | 0.73 | inactive |
| LINC01002 (long independently transcribed non-coding RNA 1002) | 1 | 0.69 | 0.27 | 0.98 | 0.81 | inactive |
| ADAR (adenosine deaminase RNA specific) | 1 | 0.11 | 0.06 | 0 | 0.25 | inactive |
| SPEG (striated muscle enriched protein kinase) | 1 | 0.19 | 0.12 | 0.38 | 0.07 | inactive |
| THY1 (Thy-1 cell surface antigen) | 1 | 0.76 | 0.7 | 0.76 | 0.82 | inactive |
| THY1 (Thy-1 cell surface antigen) | 2 | 0.24 | 0.17 | 0.04 | 0.51 | inactive |
| NWD1 (NACHT and WD repeat domain containing 1) | 1 | -0.13 | 0 | 0.08 | -0.48 | inactive |
| TMEM234 (transmembrane protein 234) | 1 | -0.83 | -0.81 | -0.78 | -0.9 | inactive |
| SECTM1 (secreted and transmembrane 1) | 1 | 0.47 | 0.33 | 0.36 | 0.73 | inactive |
| SMUG1 | 1 | 0.43 | 0.22 | 0.37 | 0.7 | inactive |
| ANKRD29 (ankyrin repeat domain 29) | 1 | 0.15 | -0.34 | 0.21 | 0.57 | inactive |
| RPL5P7 (ribosomal protein L5 pseudogene 7) | 1 | 0.05 | 0.13 | -0.12 | 0.13 | inactive |
| LYPD6B (LY6/PLAUR domain containing 6B) | 1 | 1.68 | 2.25 | 1.65 | 1.15 | inactive |
| UTP14A (UTP14A small subunit processome component) | 1 | -0.19 | -0.36 | 0 | -0.21 | inactive |
| NRG4 (neuregulin 4) | 1 | 0.7 | 0.31 | 0.69 | 1.12 | inactive |
| ZNF707 (zinc finger protein 707) | 1 | 0.62 | 0.71 | 0.7 | 0.44 | inactive |
| CAPNS2 (calpain small subunit 2) | 1 | -0.28 | -0.19 | -0.28 | -0.36 | inactive |
| EHHADH-AS1 (EHHADH antisense RNA 1) | 1 | -0.74 | -0.89 | -0.63 | -0.69 | inactive |
| CILP2 (cartilage intermediate layer protein 2) | 1 | 2.03 | 2.22 | 1.8 | 2.08 | active |
| RPL34 (ribosomal protein L34) | 1 | -1.87 | -1.7 | -2.03 | -1.88 | inactive |
| PLOD3 (procollagen-lysine,2-oxoglutarate 5-dioxygenase 3) | 1 | -1.16 | -1.13 | -1.25 | -1.09 | inactive |
| AS3MT (arsenite methyltransferase) | 1 | 1.12 | 1.16 | 1.27 | 0.93 | inactive |
| LCE3D (late cornified envelope 3D) | 1 | -0.87 | -0.51 | -0.94 | -1.15 | inactive |
| HHLA2 (HHLA2 member of B7 family) | 1 | -0.12 | -0.37 | -0.2 | 0.2 | inactive |
| UMODL1 (uromodulin like 1) | 1 | -0.69 | -0.67 | -0.72 | -0.68 | inactive |
| RHEBL1 (RHEB like 1) | 1 | 1.35 | 1.63 | 1.18 | 1.25 | inactive |
| CHCHD5 (coiled-coil-helix-coiled-coil-helix domain containing 5) | 1 | 2.03 | 1.76 | 2.2 | 2.13 | active |
| LOC400600 (retired record) | 1 | 0.11 | 0.44 | -0.11 | 0.01 | inactive |
| LOC387754 (retired record) | 1 | 1.56 | 1.44 | 1.22 | 2.02 | inactive |
| TGFBR1 (transforming growth factor beta receptor 1) | 1 | 1.65 | 1.65 | 1.72 | 1.56 | inactive |
| PRPS1L1 (phosphoribosyl pyrophosphate synthetase 1 like 1) | 1 | 0.35 | 0.38 | 0.25 | 0.42 | inactive |
| MYPOP (Myb related transcription factor, partner of profilin) | 1 | -0.41 | -0.25 | -0.29 | -0.67 | inactive |
| ID2 (inhibitor of DNA binding 2) | 1 | 0.16 | 0.13 | 0.07 | 0.28 | inactive |
| GRB10 (growth factor receptor bound protein 10) | 1 | 0.11 | 0.22 | -0.08 | 0.17 | inactive |
| ITFG1 (integrin alpha FG-GAP repeat containing 1) | 1 | -0.65 | -0.5 | -1.24 | -0.21 | inactive |
| ROR1 (ROR family WNT receptor 1) | 1 | -0.18 | -0.61 | 0.06 | 0.01 | inactive |
| KRTAP12-3 (keratin associated protein 12-3) | 1 | 0.3 | 0.25 | 0.2 | 0.46 | inactive |
| MLLT3 (MLLT3 super elongation complex subunit) | 1 | -0.2 | 0.09 | -0.27 | -0.41 | inactive |
| RARRES2 (retinoic acid receptor responder 2) | 1 | 0.17 | 0.16 | 0.28 | 0.08 | inactive |
| CXXC1P1 (CXXC finger protein 1 pseudogene 1) | 1 | 0.09 | 0.01 | 0.18 | 0.07 | inactive |
| MRPL52 (mitochondrial ribosomal protein L52) | 1 | -0.58 | -0.55 | -0.98 | -0.22 | inactive |
| ARFGEF1 (ARF guanine nucleotide exchange factor 1) | 1 | -1.32 | -1.33 | -1.3 | -1.33 | inactive |
| TFRC (transferrin receptor) | 1 | 1 | 0.78 | 0.79 | 1.43 | inactive |
| WDR59 (WD repeat domain 59) | 1 | -0.04 | -0.48 | -0.2 | 0.56 | inactive |
| ICAM2 (intercellular adhesion molecule 2) | 1 | 0.34 | 0.4 | 0.28 | 0.33 | inactive |
| ITM2C (integral membrane protein 2C) | 1 | 1.27 | 1.41 | 1.38 | 1.04 | inactive |
| TIMM21 (translocase of inner mitochondrial membrane 21) | 1 | -0.78 | -0.8 | -0.85 | -0.71 | inactive |
| TNFRSF10A (TNF receptor superfamily member 10a) | 1 | 0.21 | 0.4 | 0.33 | -0.09 | inactive |
| SPG7 (SPG7 matrix AAA peptidase subunit, paraplegin) | 1 | 0.2 | 0.31 | 0 | 0.29 | inactive |
| MVB12B (multivesicular body subunit 12B) | 1 | -0.64 | -0.61 | -0.67 | -0.64 | inactive |
| RFLNB (refilin B) | 1 | -1.01 | -1.06 | -0.86 | -1.12 | inactive |
| LOC387922 (retired record) | 1 | -0.33 | -0.39 | -0.51 | -0.08 | inactive |
| LOC388755 (retired record) | 1 | 0.48 | 0.27 | 0.84 | 0.33 | inactive |
| LOC392179 (retired record) | 1 | 0.61 | 0.44 | 0.97 | 0.44 | inactive |
